Source: article PMC12658140

Target: H3N8 A/mallard/Alberta/362/2017 HA ectodomain (influenza A virus H3N8 A/mallard/Alberta/362/2017)
Experiment: cryo-EM structure

“H3N8 A/mallard/Alberta/362/2017 HA ectodomain (domain or fragment)” showed a stoichiometry N of 3.
